A mixed list of measured activities; the numbers were collected in NIAID ChemDB.

All rows: enzyme or target tests; agent: HIV-1; protein: Protease; measure: IC50

Two numbers with a dash give a range or band. Neighbouring rows are from separate reports. ICn is the concentration giving n% inhibition.

SMILES,value
CC(C)(C)NC(=O)[C@H]1N(C(=O)[C@@H](O)[C@H](Cc2ccccc2)NC(=O)[C@H](CC(N)=O)NC(=O)OCOc2cccc3ccccc23)CSC1(C)C,<0.05 µM
CC(C)(C)C(=O)OC[C@H]1O[C@@H](Oc2ccccc2)[C@H](O)[C@@H](OC(=O)C(C)(C)C)[C@@H]1O,>100 µM
CC(=O)Nc1ccc(S(=O)(=O)N(CC(C)C)C[C@@H](O)[C@H](CCc2ccccc2)NC(=O)CN2C(=O)c3ccccc3C2=O)cc1,0.02 µM
CC[C@H](C)[C@H](NC(=O)C[C@H](O)[C@H](Cc1ccccc1)NC(=O)OC(C)(C)C)C(=O)N[C@@H](Cc1ccccc1)C(=O)OC,<10 µM
CC(C)[C@H](NC(=O)[C@H](Cc1ccc2ccccc2c1)CS(=O)(=O)C(C)(C)C)C(=O)NCP(=O)(CNC(=O)[C@@H](NC(=O)[C@H](Cc1cccc2ccccc12)CS(=O)(=O)C(C)(C)C)C(C)C)NN,0.0085 µM
CC(=O)NC(C(=O)NC[C@H]1O[C@@H](Oc2ccccc2)[C@H](O)[C@@H](OCc2ccccc2)[C@@H]1OCC(C)C)C(C)C,>100 µM
CCC(C)[C@H](NC(=O)[C@H](Cc1c[nH]c2ccccc12)NC(C)=O)[C@H](O)[C@@H](O)[C@H](CC1CCCCC1)NC(=O)[C@H](Cc1c[nH]c2ccccc12)NC(C)=O,12 µM
OC1C(Cc2ccccc2)(Cc2ccccc2)[C@@H]2COC[C@H]2C1(Cc1ccccc1)Cc1ccccc1,70–100 µM
CC(C)[C@H](NC(=O)OCc1ccccc1)C(=O)N[C@@H](Cc1ccccc1)C(O)[C@H](Cc1ccccc1)NC(=O)[C@@H](NC(=O)OCc1ccccc1)C(C)C,0.025 µM
O=C(Oc1ccccc1)N1C2C3(CO)C(c4ccccc4)C4(CO)C1C1(CO)C(c5ccccc5)C2(CO)C3N(C(=O)Oc2ccccc2)C41,>25 µM
CC(=O)N[C@@H](Cc1cccc2ccccc12)C(=O)N[C@@H](CC(N)=O)C(=O)N[C@@H](CC(C)C)[C@@H](O)CC(=O)N[C@@H](CC(C)C)C(=O)N[C@@H](Cc1ccccc1)C(N)=O,4.6 µM
N[C@@H](Cc1ccccc1)C(=O)N[C@@H](CO)C(=O)N[C@@H](Cc1ccccc1)[C@H](O)C(=O)NCC1CCCCC1,<1000 µM
CC(C)(C)NC(=O)[C@@H]1C[C@]2(C)CCCC[C@]2(C)CN1C[C@@H](O)CNc1ccc2[nH]ccc2c1,176 µM
CC(C)C[C@@H](CC[C@@H](Cc1ccccc1)C(=O)N[C@H](C(=O)N[C@H](C(N)=O)C(C)C)C(C)C)NC(=O)[C@@H](NC(=O)[C@@H](NC(=O)OC(C)(C)C)C(C)C)C(C)C,>10 µM
CCOC(=O)C1=CN(Cc2ccccc2)C2C(CO)(C3N(Cc4ccccc4)C=C(C(=O)OCC)[C@H](c4ccccc4)C23CO)[C@H]1c1ccccc1,12.1 µM
C=CCC1(CC=C)C(O)C(CC=C)(CC=C)[C@@H]2COC[C@H]21,70–100 µM
CC(=O)N[C@@H](Cc1cccc2ccccc12)C(=O)N[C@@H](CCC(N)=O)C(=O)N[C@@H](CC(C)C)[C@@H](O)CC(=O)N[C@@H](CC(C)C)C(=O)N[C@@H](Cc1ccccc1)C(N)=O,3.3 µM
CC(=O)N[C@@H](Cc1c[nH]c2ccccc12)C(=O)N[C@H](C(=O)N[C@@H](Cc1ccccc1)[C@H](O)[C@@H](O)[C@H](Cc1ccccc1)NC(=O)[C@@H](NC(=O)[C@H](Cc1c[nH]c2ccccc12)NC(C)=O)C(C)C)C(C)C,0.005 µM
Cc1cccc(C)c1OCC(=O)N[C@@H](Cc1ccccc1)[C@@H](O)C[C@H](Cc1ccccc1)NC(=O)[C@H](C(C)C)N1CCNC1=S,<0.0005 µM
CC(=O)N[C@@H](Cc1c[nH]c2ccccc12)C(=O)N[C@H](C(=O)N[C@@H](CC(C)C)[C@@H](O)CC(=O)N[C@@H](CC(C)C)C(=O)N[C@@H](Cc1ccccc1)C(N)=O)C(C)C,0.013 µM
Cc1noc(C)c1CNC(=O)[C@H]1N(C(=O)[C@@H](O)C[C@@H](Cc2ccccc2)C(=O)N[C@H]2c3ccccc3OC[C@H]2O)COC12CCCC2,0.0001 µM
COc1ccc(C2C3(CO)C4N(C(C)=O)C5C2(CO)C2N(C(C)=O)C3C4(CO)C(c3ccc(OC)cc3)C52CO)cc1,>25 µM
CC(C)[C@H](NC(=O)[C@H](Cc1ccc2ccccc2c1)CS(=O)(=O)C(C)(C)C)C(=O)N[C@@H](Cc1ccccc1)P(N)(=O)[C@H](Cc1ccccc1)NC(=O)[C@@H](NC(=O)[C@H](Cc1cccc2ccccc12)CS(=O)(=O)C(C)(C)C)C(C)C,0.001 µM
CC[C@H](C)[C@H](NC(=O)[C@@H]1CCCN1C(=O)[C@@H](O)[C@H](Cc1ccccc1)NC(=O)[C@H](CC(=O)O)NC(=O)[C@H](Cc1ccccc1)NC(=O)[C@@H](N)CO)C(=O)N[C@H](C(N)=O)C(C)C,0.005 µM
COc1ccc(C2C3(CO)C4N(C(=O)OC(C)(C)C)C5C2(CO)C2N(C(=O)OC(C)(C)C)C3C4(CO)C(c3ccc(OC)cc3)C52CO)cc1,>50 µM
Cc1cccc(C)c1OCC(=O)N[C@@H](Cc1ccccc1)[C@@H](O)C[C@H](Cc1ccccc1)NC(=O)[C@H](C(C)C)N1C(=O)CCC1=O,<0.0005 µM
CC[C@H](C)[C@H](NC(=O)[C@@H]1CCCN1C(=O)[C@H](O)[C@H](Cc1ccccc1)NC(=O)[C@H](CO)NC(=O)Cc1ccccc1)C(=O)N[C@H](C(N)=O)C(C)C,>10 µM
CC1(C)S[C@H]([C@H](NC(=O)Cc2ccccc2)C(=O)NCc2ccccc2)N[C@H]1C(=O)NCCNC(=O)[C@@H]1N[C@@H]([C@H](NC(=O)Cc2ccccc2)C(=O)NCc2ccc(C(=O)O)cc2)SC1(C)C,0.0045 µM
CSC(C)(C)[C@H](NC(=O)COc1cccc2ccccc12)C(=O)N[C@@H](Cc1ccccc1)[C@H](O)C(=O)N1CSC[C@H]1C(=O)NC(C)(C)C,<0.05 µM
CC1(C)S[C@H](C(NC(=O)Cc2ccccc2)C(=O)NCC(=O)O)N[C@H]1C(=O)NCCNC(=O)[C@@H]1N[C@@H](C(NC(=O)Cc2ccccc2)C(=O)NCc2ccccc2)SC1(C)C,0.0037 µM
O=C(N[C@H]1c2ccccc2C[C@H]1O)[C@@H](Cc1ccccc1)CS(=O)C[C@H](Cc1ccccc1)C(=O)N[C@H]1c2ccccc2C[C@H]1O,>10 µM
CC(C)C[C@@H](C=O)NC(=O)[C@H](CC(C)C)NC(=O)[C@H](CC(C)C)NC(=O)OCc1ccccc1,>100 µM
COP(=O)(CNC(=O)[C@@H](NC(=O)[C@H](Cc1ccc2ccccc2c1)CS(=O)(=O)C(C)(C)C)C(C)C)CNC(=O)[C@@H](NC(=O)[C@H](Cc1cccc2ccccc12)CS(=O)(=O)C(C)(C)C)C(C)C,0.95 µM
Cc1cccc(C)c1OCC(=O)N[C@@H](Cc1ccccc1)[C@@H](O)C[C@H](Cc1ccccc1)NC(=O)[C@H](C(C)C)N1CCC(=O)NC1=O,<0.0005 µM
CC(C)CN(C[C@@H](O)[C@H](Cc1ccccc1)NC(=O)[C@@H](NC(=O)C1CCCN1)C(C)(C)C)S(=O)(=O)c1ccc2c(c1)OCO2,0.002 µM
CC(=O)N1C2C3(CO)C(c4ccccc4)C4(CO)C1C1(CO)C(c5ccccc5)C2(CO)C3N(C(C)=O)C41,>50 µM
O=C(COc1ccccc1)N[C@@H](Cc1ccccc1)[C@H](O)[C@@H](O)[C@H](Cc1ccccc1)NC(=O)[C@H](NC(=O)c1cc(=O)c2ccccc2[nH]1)c1cccs1,0.008 µM
CC[C@H](C)[C@H](NC(=O)[C@@H]1CCCN1C(=O)[C@@H](O)[C@H](Cc1ccccc1)NC(=O)[C@H](CO)NC(=O)CCc1ccccc1)C(=O)N[C@H](C(N)=O)C(C)C,1.594 µM
CC(C)[C@H](NC(=O)COc1cccc2ccccc12)C(=O)N[C@@H](Cc1ccccc1)[C@H](O)C(=O)N1CSC[C@H]1C(=O)NC(C)(C)C,<0.05 µM
CC(=O)N[C@@H](Cc1ccc(N)cc1)C(=O)N[C@H](C(=O)N[C@@H](CC(C)C)[C@@H](O)CC(=O)N[C@@H](CC(C)C)C(=O)N[C@@H](Cc1ccccc1)C(N)=O)C(C)C,0.08 µM
NC(=O)C[C@H](NC(=O)[C@@H](N)Cc1ccccc1)C(=O)N[C@@H](Cc1ccccc1)[C@H](O)C(=O)NCC1CCCCC1,<1000 µM
CC(C)[C@H](NC(=O)[C@H](Cc1ccc2ccccc2c1)CS(=O)(=O)C(C)(C)C)C(=O)NCP(N)(=O)CNC(=O)[C@@H](NC(=O)[C@H](Cc1cccc2ccccc12)CS(=O)(=O)C(C)(C)C)C(C)C,0.0055 µM
CC[C@@H](C)[C@H](NC(=O)[C@@H]1CCCN1C(=O)[C@@H](O)[C@H](Cc1ccccc1)NC(=O)[C@H](CC(N)=O)NC(=O)COc1ccccc1)C(=O)N[C@H](C(N)=O)C(C)C,<5 µM
O=C1C(C/C=C/c2ccccc2)(C/C=C/c2ccccc2)[C@@H]2COC[C@H]2C1(C/C=C/c1ccccc1)C/C=C/c1ccccc1,70–100 µM
CS(=O)(=O)C[C@H](NC(=O)COc1cccc2ccccc12)C(=O)N[C@@H](Cc1ccccc1)[C@H](O)C(=O)N1CCC[C@H]1C(=O)Nc1cccc(O)c1,>0.05 µM
CC(C)(C)OC(=O)N1C2C3(CO)C(c4ccccc4)C4(CO)C1C1(CO)C(c5ccccc5)C2(CO)C3N(C(=O)OC(C)(C)C)C41,~25 µM
CC[C@H](C)[C@H](NC(=O)[C@@H]1CCCN1C(=O)[C@@H](O)[C@H](Cc1ccccc1)NC(=O)[C@H](CO)NC(=O)Cc1ccccc1)C(=O)N[C@H](C(N)=O)C(C)C,<5 µM
CC[C@H](C)[C@H](NC(=O)CN(N)C(=O)[C@H](Cc1ccccc1)NC(=O)OC(C)(C)C)C(=O)N[C@@H](Cc1ccccc1)C(=O)OC,>10 µM

Repeating the final 4 entries:

{"SMILES": "CS(=O)(=O)C[C@H](NC(=O)COc1cccc2ccccc12)C(=O)N[C@@H](Cc1ccccc1)[C@H](O)C(=O)N1CCC[C@H]1C(=O)Nc1cccc(O)c1", "value": ">0.05 µM"}
{"SMILES": "CC(C)(C)OC(=O)N1C2C3(CO)C(c4ccccc4)C4(CO)C1C1(CO)C(c5ccccc5)C2(CO)C3N(C(=O)OC(C)(C)C)C41", "value": "~25 µM"}
{"SMILES": "CC[C@H](C)[C@H](NC(=O)[C@@H]1CCCN1C(=O)[C@@H](O)[C@H](Cc1ccccc1)NC(=O)[C@H](CO)NC(=O)Cc1ccccc1)C(=O)N[C@H](C(N)=O)C(C)C", "value": "<5 µM"}
{"SMILES": "CC[C@H](C)[C@H](NC(=O)CN(N)C(=O)[C@H](Cc1ccccc1)NC(=O)OC(C)(C)C)C(=O)N[C@@H](Cc1ccccc1)C(=O)OC", "value": ">10 µM"}